From publication PMC7534037

Experiments:
H5N6 wt NA = H5N6 wt NA (Influenza A virus, UniProt A0A0A0QMP7); assay: MUNANA fluorescence-based NA inhibition assay, live virus; details: read-out: IC50 ± SD, mean of n=3
H5N8 wt NA = H5N8 wt NA (Influenza A virus, UniProt W8NQ88); assay: as above; details: read-out: IC50 ± SD, mean of n=3
H5N2 wt NA = H5N2 wt NA (Influenza A virus, UniProt A0A219V3U5)

Row | Compound | EC50 (wt H5N2 virus) [nM] | EC50 (wt H5N6 virus) [nM] | IC50 (H5N6 wt NA) [nM] | IC50 (H5N8 wt NA) [nM] | IC50 (H5N2 wt NA) [nM]
1 | CC(=O)N[C@H]1[C@H]([C@H](O)[C@H](O)CO)OC(C(=O)O)=C[C@@H]1N=C(N)N | 0.5 | 2.23 |  |  | 
2 | oseltamivir carboxylate | 0.2 | 2.27 | 0.96 | 1.35 | 0.14
3 | peramivir | 0.06 | 0.15 | 0.08 | 0.04 | 0.09
